Pooled drug test results. Numbers come from NIAID ChemDB, via PubChem.

All rows: tests in culture; species: Mycobacterium bovis BCG

Blank or dashed fields: not listed here. Rows are shuffled and stem from different studies. MIC50, MIC90 and the like: level of inhibition, or share of isolates inhibited.

compound,read-out,strain or isolate,setting,read by,value
CC[C@@H](CO)NCCN[C@@H](CC)CO,MIC100,1173P2,48 h,broth dilution,0.75 µg/mL
Ic1ccc2c(c1)N(c1ccccc1)c1cc(Nc3ccc4nc5ccc(I)cc5[n+](-c5ccccc5)c4c3)ccc1N2,MIC,Pasteur,-,-,25 µM
C#CC(C)(CC)OC(C)=O,MIC,1173P2,48 h,resazurin,125 µg/mL
Clc1ccccc1Cn1cc(/C=N/Nc2nncs2)c2ccccc21,MIC100,1173P2,24 h,broth dilution,7.81 µg/mL
COC(=O)Cc1ccc2[nH]c3ccc(Cl)cc3c2c1,MIC99,-,-,resazurin / visual reading / absorbance,31.3 µg/mL
Cc1cc(N)c2ccccc2[n+]1CCCCCCCCCC[n+]1c(C)cc(N)c2ccccc21,MIC,Pasteur,-,-,3.125 µM
C#CC(C)(O)CC,MIC,1173P2,24 h,resazurin,125 µg/mL
c1ccc(/C(=N/Nc2nc3ccccc3s2)c2ccccn2)cc1,MIC,Pasteur,-,-,>100 µM
COC(=O)C#CC(=O)OC,MIC,1173P2,48 h,resazurin,7.75 µg/mL
O=C(O)Cc1ccc2[nH]c3ccc(C(F)(F)F)cc3c2c1,MIC99,-,-,resazurin / visual reading / absorbance,125 µg/mL
Cc1c(N)nc([C@H](CC(N)=O)NC[C@H](N)C(N)=O)nc1C(=O)N[C@H](C(=O)N[C@H](C)[C@@H](O)[C@H](C)C(=O)N[C@H](C(=O)NCCc1nc(-c2nc(C(=O)NCCC[S+](C)C)cs2)cs1)[C@@H](C)O)C(O[C@@H]1O[C@@H](CO)[C@@H](O)[C@H](O)[C@@H]1O[C@H]1O[C@H](CO)[C@@H](O)[C@H](OC(N)=O)[C@@H]1O)c1cnc[nH]1,MIC,Pasteur,-,-,3.125 µM
CCCn1cc(/C=N/Nc2nncs2)c2ccccc21,MIC100,1173P2,48 h,broth dilution,250 µg/mL
COc1cccc(-c2ccc3[nH]c4cc(C(C)C(=O)O)ccc4c3c2)c1,MIC99,-,-,resazurin / visual reading / absorbance,62.5 µg/mL
C#CCCCCCCCC,MIC,1173P2,24 h,resazurin,62.5 µg/mL
C=C(NC(=O)C(=C)NC(=O)c1csc(C2=NC3CC4(C2)NC(=O)C(C)NC(=O)C(=C)NC(=O)C(=C)NC(=O)C(C(C)C)NC2C=Cc5c(C(C)O)cc(nc5C2O)C(=O)OC(C)C(NC(=O)c2csc(n2)C(C(C)(O)C(C)O)NC(=O)C2CSC(=N2)/C(=C\C)NC(=O)C(C(C)O)NC(=O)c2csc4n2)c2nc3cs2)n1)C(N)=O,MIC,Pasteur,-,-,6.25 µM
CC#CCCC,MIC,1173P2,24 h,resazurin,3.87 µg/mL
C(=N\Nc1nncs1)/c1cn(Cc2ccccc2)c2ccccc12,MIC100,1173P2,48 h,broth dilution,250 µg/mL
CC(C(=O)O)c1ccc2[nH]c3ccc(Cl)cc3c2c1,MIC99,-,-,resazurin / visual reading / absorbance,125 µg/mL
C#CC(CCCCC)OC(C)=O,MIC,1173P2,48 h,resazurin,125 µg/mL
COC(=O)C(C)c1ccc2c(c1)[nH]c1ccc(Cl)cc12,MIC99,-,-,resazurin / visual reading / absorbance,31.3 µg/mL
CCOC(=O)C#Cc1ccccc1,MIC,1173P2,24 h,resazurin,7.75 µg/mL

For reference, 2 entries again:

compound	read-out	strain or isolate	setting	read by	value
Clc1ccccc1Cn1cc(/C=N/Nc2nncs2)c2ccccc21	MIC100	1173P2	24 h	broth dilution	7.81 µg/mL
COC(=O)C(C)c1ccc2c(c1)[nH]c1ccc(Cl)cc12	MIC99	-	-	resazurin / visual reading / absorbance	31.3 µg/mL